# In patent US10646469B2, “Substituted indole derivatives as dengue viral replication inhibitors” (Janssen Pharmaceuticals, Inc., priority 2016, dated 2020):
# Test system: DENV-2 16681 strain
# Test: DENV-2 antiviral assay (eGFP-labeled virus in Vero cells)
# Type: cell-based, Dengue virus
# Conditions: SI=CC50/EC50, DENV-2 antiviral assay
# Protocol: The antiviral activity of all the compounds of the invention was tested against the DENV-2 16681 strain which was labeled with enhanced green fluorescent protein (eGPF). The culture medium consists of minimal essential medium supplemented with 2% of heat-inactivated fetal calf serum, 0.04% gentamycin (50 mg/mL) and 2 mM of L-glutamine. Vero cells, obtained from ECACC, were suspended in culture medium and 25 μL was added to 384-well plates (2500 cells/well), which already contain the antiviral compounds. Typically, these plates contain a 5-fold serial dilution of 9 dilution steps of the test compound at 200 times the final concentration in 100% DMSO (200 nL). […] Finally, each plate contains wells which are assigned as virus controls (containing cells and virus in the absence of compound), cell controls (containing cells in the absence of virus and compound) and medium controls (containing medium in the absence of cells, virus and compounds). To the wells assigned as medium control, 25 μL of culture medium was added instead of Vero cells. Once the cells were added to the plates, the plates were incubated for 30 minutes at room temperature to allow the cells to distribute evenly within the wells. Next, the plates were incubated in a fully humidified incubator (37° C., 5% CO2) until the next day. Then, DENV-2 strain 16681, labeled with eGFP, was added at a multiplicity of infection (MOI) of 0.5. Therefore, 15 μL of virus suspension was added to all the wells containing test compound and to the wells assigned as virus control. In parallel, 15 μL of culture medium was added to the medium and cell controls. Next, the plates were incubated for 3 days in a fully humidified incubator (37° C., 5% CO2). At the day of the read out, the eGFP fluorescence was measured using an automated fluorescence microscope at 488 nm (blue laser). Using an in-house LIMS system, inhibition dose response curves for each compound were calculated and the half maximal effective concentration (EC50) was determined. Therefore, the percent inhibition (I) for every test concentration is calculated using the following formula: I=100*([…])/(SVC−SCC); ST, SCC and SVC are the amount of eGFP signal in the test compound, cell control and virus control wells, respectively. The EC50 represents the concentration of a compound at which the virus replication is inhibited with 50%, as measured by a 50% reduction of the eGFP fluorescent intensity compared to the virus control. The EC50 is calculated using linear interpolation (Table 1).
row,SMILES,SI
1,"COc1cc(NC(C(=O)c2c[nH]c3ccc(C(F)(F)F)cc23)c2ccc(F)cc2OC)cc(OCCO)c1 (racemic) [Compound 1, 2-(4-fluoro-2-methoxyphenyl)-2-((3-(2-hydroxyethoxy)-5-methoxyphenyl)amino)-1-(5-(trifluoromethyl)-1H-indol-3-yl)ethanone]",4730
2,"COc1cc(NC(C(=O)c2c[nH]c3cc(OC)c(C(F)(F)F)cc23)c2ccc(F)cc2OC)cc(OCCO)c1 (racemic) [Compound 2, 2-(4-fluoro-2-methoxyphenyl)-2-((3-(2-hydroxyethoxy)-5-methoxyphenyl)amino)-1-(6-methoxy-5-(trifluoromethyl)-1H-indol-3-yl)ethanone]",6770
3,"COc1cc(NC(C(=O)c2c[nH]c3cc(F)c(C(F)(F)F)cc23)c2ccc(F)cc2OC)cc(OCCO)c1 (racemic) [Compound 3, 2-(4-fluoro-2-methoxyphenyl)-1-(6-fluoro-5-(trifluoromethyl)-1H-indol-3-yl)-2-((3-(2-hydroxyethoxy)-5-methoxyphenyl)amino)ethanone]",3220
4,"COc1cc(NC(C(=O)c2c[nH]c3c(C)cc(C(F)(F)F)cc23)c2ccc(F)cc2OC)cc(OCCO)c1 (racemic) [Compound 4, 2-(4-fluoro-2-methoxyphenyl)-2-((3-(2-hydroxyethoxy)-5-methoxyphenyl)amino)-1-(7-methyl-5-(trifluoromethyl)-1H-indol-3-yl)ethanone]",13100
5,"COc1cc(NC(C(=O)c2c[nH]c3ccc(OC(F)(F)F)cc23)c2ccc(F)cc2OC)cc(OCCO)c1 (racemic) [Compound 5, 2-(4-fluoro-2-methoxyphenyl)-2-((3-(2-hydroxyethoxy)-5-methoxyphenyl)amino)-1-(5-(trifluoromethoxy)-1H-indol-3-yl)ethanone]",10300
6,"COc1cc(NC(C(=O)c2c[nH]c3cc(OC)c(OC(F)(F)F)cc23)c2ccc(F)cc2OC)cc(OCCO)c1 (racemic) [Compound 6, 2-(4-fluoro-2-methoxyphenyl)-2-((3-(2-hydroxyethoxy)-5-methoxyphenyl)amino)-1-(6-methoxy-5-(trifluoromethoxy)-1H-indol-3-yl)ethanone]",5560
7,"COc1cc(NC(C(=O)c2c[nH]c3c(C)cc(OC(F)(F)F)cc23)c2ccc(F)cc2OC)cc(OCCO)c1 (racemic) [Compound 8, 2-(4-fluoro-2-methoxyphenyl)-2-((3-(2-hydroxyethoxy)-5-methoxyphenyl)amino)-1-(7-methyl-5-(trifluoromethoxy)-1H-indol-3-yl)ethanone]",11800
8,"COc1cc(NC(C(=O)c2c[nH]c3ccc(C(F)(F)F)cc23)c2ccc(Cl)cc2OC)cc(OCCO)c1 (racemic) [Compound 9, 2-(4-chloro-2-methoxyphenyl)-2-((3-(2-hydroxyethoxy)-5-methoxyphenyl)amino)-1-(5-(trifluoromethyl)-1H-indol-3-yl)ethanone]",17600
9,"COc1cc(NC(C(=O)c2c[nH]c3cc(OC)c(C(F)(F)F)cc23)c2ccc(Cl)cc2OC)cc(OCCO)c1 (racemic) [Compound 10, 2-(4-chloro-2-methoxyphenyl)-2-((3-(2-hydroxyethoxy)-5-methoxyphenyl)amino)-1-(6-methoxy-5-(trifluoromethyl)-1H-indol-3-yl)ethanone]",>9920
10,"COc1cc(NC(C(=O)c2c[nH]c3cc(OC)c(OC(F)(F)F)cc23)c2ccc(Cl)cc2OC)cc(OCCO)c1 (racemic) [Compound 14, 2-(4-chloro-2-methoxyphenyl)-2-((3-(2-hydroxyethoxy)-5-methoxyphenyl)amino)-1-(6-methoxy-5-(trifluoromethoxy)-1H-indol-3-yl)ethanone]",>8340
11,"COc1cc(NC(C(=O)c2c[nH]c3c(C)cc(OC(F)(F)F)cc23)c2ccc(Cl)cc2OC)cc(OCCO)c1 (racemic) [Compound 16, 2-(4-chloro-2-methoxyphenyl)-2-((3-(2-hydroxyethoxy)-5-methoxyphenyl)amino)-1-(7-methyl-5-(trifluoromethoxy)-1H-indol-3-yl)ethanone]",>39200
12,"COc1cc(NC(C(=O)c2c[nH]c3ccc(C(F)(F)F)cc23)c2ccc(F)cc2OC)cc(OCCO)c1 (single isomer, unassigned) [Compound 1A, 2-(4-fluoro-2-methoxyphenyl)-2-((3-(2-hydroxyethoxy)-5-methoxyphenyl)amino)-1-(5-(trifluoromethyl)-1H-indol-3-yl)ethanone]",106
13,"COc1cc(NC(C(=O)c2c[nH]c3cc(OC)c(C(F)(F)F)cc23)c2ccc(F)cc2OC)cc(OCCO)c1 (single isomer, unassigned) [Compound 2B, 2-(4-fluoro-2-methoxyphenyl)-2-((3-(2-hydroxyethoxy)-5-methoxyphenyl)amino)-1-(6-methoxy-5-(trifluoromethyl)-1H-indol-3-yl)ethanone]",287
14,"COc1cc(NC(C(=O)c2c[nH]c3cc(F)c(C(F)(F)F)cc23)c2ccc(F)cc2OC)cc(OCCO)c1 (single isomer, unassigned) [Compound 3B, 2-(4-fluoro-2-methoxyphenyl)-1-(6-fluoro-5-(trifluoromethyl)-1H-indol-3-yl)-2-((3-(2-hydroxyethoxy)-5-methoxyphenyl)amino)ethanone]",511
15,"COc1cc(NC(C(=O)c2c[nH]c3c(C)cc(C(F)(F)F)cc23)c2ccc(F)cc2OC)cc(OCCO)c1 (single isomer, unassigned) [Compound 4A, 2-(4-fluoro-2-methoxyphenyl)-2-((3-(2-hydroxyethoxy)-5-methoxyphenyl)amino)-1-(7-methyl-5-(trifluoromethyl)-1H-indol-3-yl)ethanone]",172
16,"COc1cc(NC(C(=O)c2c[nH]c3ccc(OC(F)(F)F)cc23)c2ccc(F)cc2OC)cc(OCCO)c1 (single isomer, unassigned) [Compound 5A, 2-(4-fluoro-2-methoxyphenyl)-2-((3-(2-hydroxyethoxy)-5-methoxyphenyl)amino)-1-(5-(trifluoromethoxy)-1H-indol-3-yl)ethanone]",181
17,"COc1cc(NC(C(=O)c2c[nH]c3cc(OC)c(OC(F)(F)F)cc23)c2ccc(F)cc2OC)cc(OCCO)c1 (single isomer, unassigned) [Compound 6B, 2-(4-fluoro-2-methoxyphenyl)-2-((3-(2-hydroxyethoxy)-5-methoxyphenyl)amino)-1-(6-methoxy-5-(trifluoromethoxy)-1H-indol-3-yl)ethanone]",124
18,"COc1cc(NC(C(=O)c2c[nH]c3cc(F)c(OC(F)(F)F)cc23)c2ccc(F)cc2OC)cc(OCCO)c1 (single isomer, unassigned) [Compound 7A, 2-(4-fluoro-2-methoxyphenyl)-1-(6-fluoro-5-(trifluoromethoxy)-1H-indol-3-yl)-2-((3-(2-hydroxyethoxy)-5-methoxyphenyl)amino)ethanone]",270
19,"COc1cc(NC(C(=O)c2c[nH]c3c(C)cc(OC(F)(F)F)cc23)c2ccc(F)cc2OC)cc(OCCO)c1 (single isomer, unassigned) [Compound 8B, 2-(4-fluoro-2-methoxyphenyl)-2-((3-(2-hydroxyethoxy)-5-methoxyphenyl)amino)-1-(7-methyl-5-(trifluoromethoxy)-1H-indol-3-yl)ethanone]",195
20,"COc1cc(NC(C(=O)c2c[nH]c3ccc(C(F)(F)F)cc23)c2ccc(Cl)cc2OC)cc(OCCO)c1 (single isomer, unassigned) [Compound 9A, 2-(4-chloro-2-methoxyphenyl)-2-((3-(2-hydroxyethoxy)-5-methoxyphenyl)amino)-1-(5-(trifluoromethyl)-1H-indol-3-yl)ethanone]",>225
21,"COc1cc(NC(C(=O)c2c[nH]c3cc(F)c(C(F)(F)F)cc23)c2ccc(Cl)cc2OC)cc(OCCO)c1 (single isomer, unassigned) [Compound 11B, 2-(4-chloro-2-methoxyphenyl)-1-(6-fluoro-5-(trifluoromethyl)-1H-indol-3-yl)-2-((3-(2-hydroxyethoxy)-5-methoxyphenyl)amino)ethanone]",181
22,"COc1cc(NC(C(=O)c2c[nH]c3c(C)cc(C(F)(F)F)cc23)c2ccc(Cl)cc2OC)cc(OCCO)c1 (single isomer, unassigned) [Compound 12B, 2-(4-chloro-2-methoxyphenyl)-2-((3-(2-hydroxyethoxy)-5-methoxyphenyl)amino)-1-(7-methyl-5-(trifluoromethyl)-1H-indol-3-yl)ethanone]",294
23,"COc1cc(NC(C(=O)c2c[nH]c3ccc(OC(F)(F)F)cc23)c2ccc(Cl)cc2OC)cc(OCCO)c1 (single isomer, unassigned) [Compound 13B, 2-(4-chloro-2-methoxyphenyl)-2-((3-(2-hydroxyethoxy)-5-methoxyphenyl)amino)-1-(5-(trifluoromethoxy)-1H-indol-3-yl)ethanone]",643
